Literature values in publication PMC8850191, “Mechanisms of inhibition and activation of extrasynaptic αβ GABAA receptors” (Nature, 2022).

Test system: nAChRα7
Parameters: method as in PMID 11867717
Details: toxin mutation relative to α-CBTx; cited from earlier work

In the case of “Arg36Gly: α-CBTx with the finger II mutation Arg36Gly”, the reduction of affinity is given as 300 fold.
In the case of “Arg33Gly: α-CBTx with the finger II mutation Arg33Gly”, the reduction of affinity is given as 300 fold.
